Measured values from several laboratories, pooled; numbers as filed in NIAID ChemDB.

Shared fields: whole-cell or culture tests; agent: Mycobacterium tuberculosis

Lines come from different laboratories, so protocols vary.

| compound | strain | mutations | read by | tested at | cells | measure | result |
|---|---|---|---|---|---|---|---|
| CCNc1nc(NCC)nc(NNc2nc(-c3ccc(Cl)cc3)c(C#N)c(=O)n2C)n1 | H37Rv |  |  |  |  | MIC | >12.5 µg/mL |
| COc1ccc2cc1Oc1ccc(cc1)C[C@@H]1c3cc(c(OC)cc3CCN1C)Oc1c(OC)c(OC)cc3c1[C@@H](C2)N(C)CC3 | H37Rv |  | BACTEC | 12.5 µg/mL |  | inhibition | 14% |
| Cc1ccc2nc(SCc3cccc(C(F)(F)F)c3)[nH]c2c1 | MY 332/88 |  |  |  |  | MIC | 32 µM |
| CN1C=NC2C(=O)N=NC(=O)C21 | H37Rv |  | BACTEC |  |  | MIC bound | >12.5 µg/mL |
| Nc1ccc(-c2nnc(SCc3ccc([N+](=O)[O-])cc3)n2-c2ccccc2)cc1 | H37Rv |  |  |  |  | EC50 | >6.25 µg/mL |
| CO[C@H]1/C=C/O[C@@]2(C)Oc3c(C)c(O)c4c(O)c(c(/C=N/N5CCN(C)CC5)c(O)c4c3C2=O)NC(=O)/C(C)=C\C=C\[C@H](C)[C@H](O)[C@@H](C)[C@@H](O)[C@@H](C)[C@H](OC(C)=O)[C@@H]1C | 22 strains (rifampicin-susceptible) |  |  |  |  | MIC90 | 0.39 µg/mL |
| CCOC(=O)N1CCN(c2ccc(C3CC(c4ccc([N+](=O)[O-])o4)=NO3)cc2)CC1 | UT26 |  |  |  |  | MIC | 0.003 µg/mL |
| CCOC(=O)c1c(C)oc2cc3c(C(=O)OCC)c(C)oc3cc12 | H37Rv |  | BACTEC |  |  | MIC bound | >12.5 µg/mL |
| Clc1ccc(CSc2nnc(-c3ccc(N=Cc4c(Cl)cccc4Cl)cc3)n2-c2ccccc2)c(Cl)c1 | H37Rv |  |  | 6.25 µg/mL |  | inhibition | 50–59% |
| Cc1cccc(-c2cs/c(=N/NC(=O)CSc3nnc(-c4ccccn4)s3)n2-c2ccccc2)c1 | Clinical isolate 190 |  |  |  |  | MIC | >80 µg/mL |
| Cn1c(NNc2nc(NCc3ccccc3)nc(NCc3ccccc3)n2)nc(-c2ccc(Cl)cc2)c(C#N)c1=O | H37Rv |  |  |  |  | EC50 | <12.5 µg/mL |
| Nc1ccc(-c2nnc(SCc3ccccc3)n2-c2ccccc2)cc1 | H37Rv |  |  |  |  | EC50 | >6.25 µg/mL |
| Cc1ccc2nc(SCc3cccc([N+](=O)[O-])c3)[nH]c2c1 | MY 332/88 |  |  |  |  | MIC | >62 µM |
| CC(C)CN1C(=O)CS/C1=N\NC(=O)COc1cnccn1 | H37Rv |  |  |  |  | MIC | 135 µg/mL |
| CCCCCC(/C=N/NC(=S)NC12CC3CC(CC(C3)C1)C2)=C\c1ccccc1 | H37Rv |  | BACTEC |  |  | MIC bound | >6.25 µg/mL |
| O=C(CSc1nnc(-c2ccccn2)s1)N/N=c1/scc(-c2ccccc2)n1-c1cccc([N+](=O)[O-])c1 | H37Rv |  |  |  |  | MIC | >80 µg/mL |
| O=c1oc2ccccc2c(O)c1C1=NNC(c2ccc(O)cc2O)C1 | H37Rv |  | agar |  |  | MIC90 | >6.25 µg/mL |
| CC(C)C[C@H](NC(=O)[C@H](Cc1ccccc1)NC(=O)CNC(=O)CNC(=O)[C@@H](N)Cc1ccc(O)cc1)C(=O)O | H37Rv |  | BACTEC |  |  | MIC bound | >12.5 µg/mL |
| CC(C)Cn1c(-c2ccc(F)cc2)cs/c1=N\NC(=O)COc1cnccn1 | H37Rv |  |  |  |  | MIC | 6.9 µg/mL |
| CC(=O)NNc1nc(C)c(C(=O)C=Cc2ccc(N(C)C)cc2)s1 | H37Rv |  | resazurin |  |  | MIC bound | >6.25 µg/mL |
| O=C(c1ccc([N+](=O)[O-])o1)N1CCc2cc(N3CCN(Cc4ccccc4)CC3)ccc2C1 | UT29 |  |  |  |  | MIC | 0.024 µg/mL |
| COc1ccc2c(c1)n([O-])c1ccccc1[n+]2=O | CS-R |  |  |  |  | MIC | 0.8 µg/mL |
| CSc1ccc(C2C(C(=O)Nc3ccc([N+](=O)[O-])cc3)=C(C)NC(C)=C2C(=O)Nc2ccc([N+](=O)[O-])cc2)cc1 | H37Rv |  |  | 2.5 µg/mL |  | inhibition | 97% |
| O=C(COc1cnccn1)N/N=C1\SCC(=O)N1c1ccc(Cl)cc1Cl | H37Rv |  |  |  |  | MIC | 154 µg/mL |
| O=c1oc2ccccc2c(O)c1C1=NN(c2ccccc2)C(c2ccc(C(F)(F)F)cc2)C1 | H37Rv |  | agar |  |  | MIC90 | >6.25 µg/mL |
| CSc1ccc(C2C(C(=O)Nc3ccc(C)cc3C)=C(C)NC(C)=C2C(=O)Nc2ccc(C)cc2C)cc1 | H37Rv |  |  |  |  | EC50 | <2.5 µg/mL |
| CC(O)CN1CCN(CC(C)O)CC1 | H37Rv |  | BACTEC |  |  | MIC | ≥12.8 µg/mL |
| CCOc1ccc(-n2c(-c3ccc(Br)cc3)cs/c2=N\NC(=O)COc2cnccn2)cc1 | H37Rv |  |  |  |  | MIC | 17 µg/mL |
| CC1(C)C[C@H]2C=C(C=O)[C@]34C[C@]3(C(=O)O[C@@H]4O)[C@H]2C1 | H37Rv |  | BACTEC |  |  | MIC bound | >12.5 µg/mL |
| CN[C@@H]1[C@H](O[C@H]2[C@H](O[C@H]3[C@H](O)[C@@H](O)[C@H](N=C(N)N)[C@@H](O)[C@@H]3N=C(N)N)O[C@@H](C)[C@]2(O)C=O)O[C@@H](CO)[C@H](O)[C@H]1O | 9247 (streptomycin isoniazid-R) |  |  |  |  | MIC | >1280 µg/mL |
| COC1=C[C@@H](C)[C@@H]2C[C@H]3OC(=O)C[C@H]4[C@](C)(O)[C@H](OC)[C@@H](OC(C)=O)[C@H]([C@@]2(C)C1=O)[C@@]34C | H37Rv |  |  |  |  | EC50 | >12.5 µg/mL |
| O=C(CSc1nnc(-c2ccccn2)s1)N/N=c1/scc(-c2ccc(Br)cc2)n1-c1ccccc1 | Clinical isolate 190 |  |  |  |  | MIC | 80 µg/mL |
| O=c1[nH]cc([C@@H]2O[C@H](CO)[C@@H](O)[C@H]2O)c(=O)[nH]1 | H37Rv |  | BACTEC |  |  | MIC bound | >12.5 µg/mL |
| CC1=C(C(=O)Nc2ccccc2)C(c2cccc([N+](=O)[O-])c2)C(C(=O)Nc2ccccc2)=C(C)N1 | H37Rv |  |  |  |  | EC50 | <2.5 µg/mL |
| CCNc1nc(NCC)nc(NNc2nc(-c3ccccc3)c(C#N)c(=O)n2C)n1 | H37Rv |  |  |  |  | EC50 | >12.5 µg/mL |
| C=CCn1c(SCc2ccc(Cl)cc2Cl)nnc1-c1ccc(N=Cc2ccc(F)cc2)cc1 | H37Rv |  |  |  |  | EC50 | >6.25 µg/mL |
| Cc1csc(NC(=O)C2C3CCC(O3)C2C(=O)O)n1 | H37Rv |  | BACTEC |  |  | MIC bound | >12.5 µg/mL |
| CCOc1ccc(-n2c(-c3ccc(Cl)cc3)cs/c2=N\NC(=O)COc2cnccn2)cc1 | H37Rv |  |  |  |  | MIC | 8.7 µg/mL |
| C[C@H](O)[C@H]1/C=C/C=C\C(=O)O[C@@H]2C[C@H]3O[C@@H]4[C@@H]5O[C@]5(C)CC[C@]4(COC(=O)[C@H]4O[C@]4(C)[C@@H](O)CO1)[C@]2(C)[C@]31CO1 | H37Rv |  | BACTEC | 12.5 µg/mL |  | inhibition | 3% |
| Cn1c(SCc2ccc(Cl)cc2Cl)nnc1-c1ccc(N)cc1 | H37Rv |  |  | 6.25 µg/mL |  | inhibition | <50% |
| O=C(CSc1nnc(-c2ccccn2)s1)N/N=c1/scc(-c2ccccc2)n1-c1ccccc1Br | H37Rv |  |  |  |  | MIC | >80 µg/mL |
| COC(=O)[C@]12OC[C@@]34[C@@H](CC5=C(C)C(=O)C(O)=C[C@]5(C)[C@H]3[C@@H](O)[C@@H]1O)OC(=O)[C@H](OC(=O)/C=C(\C)C(C)C)[C@@H]24 | H37Rv |  |  | 12.5 µg/mL |  | inhibition | 15% |
| O=C(CSc1nnc(-c2ccccn2)s1)N/N=c1/scc(-c2ccccc2)n1-c1ccc(Br)cc1 | Clinical isolate 331 |  |  |  |  | MIC | >80 µg/mL |
| Cc1cccc(CSc2nc3ccc(C)cc3[nH]2)c1 | MY 332/88 |  |  |  |  | MIC | 62 µM |
| CSc1ccc(NC(=O)Nc2c(C)n(C)n(-c3ccccc3)c2=O)cc1 | H37Rv |  | BACTEC |  |  | MIC bound | >12.8 µg/mL |
| CO[C@H]1/C=C/O[C@@]2(C)Oc3c(C)c(O)c4c(O)c(c(/C=N/N5CCN(C6CCCC6)CC5)c(O)c4c3C2=O)NC(=O)/C(C)=C\C=C\[C@H](C)[C@H](O)[C@@H](C)[C@@H](O)[C@@H](C)[C@H](OC(C)=O)[C@@H]1C | Aoyama B |  |  |  |  | MIC | 2.5 µg/mL |
| Cc1ccccc1-n1c(-c2ccccc2)cs/c1=N/NC(=O)CSc1nnc(-c2ccccn2)s1 | Clinical isolate 180 |  |  |  |  | MIC | >80 µg/mL |
| COC1=C[C@@H](C)[C@@H]2C[C@H]3OC(=O)C[C@H]4C(C)=C(OC)C(=O)[C@H]([C@@]2(C)C1=O)[C@@]34C | H37Rv |  |  |  |  | EC50 | >12.5 µg/mL |
| O=C(CSc1nnc(-c2ccccn2)s1)N/N=c1/scc(-c2ccccc2)n1-c1cccc(Cl)c1 | Clinical isolate 331 |  |  |  |  | MIC | >80 µg/mL |
| COC1=C[C@@H](C)[C@@H]2C[C@H]3OC(=O)C[C@@H]4[C@@]3(C)[C@H]([C@H](O)C[C@@]4(C)C(=O)C3(C)COC(=O)C3)[C@@]2(C)C1=O | H37Rv |  |  | 12.5 µg/mL |  | inhibition | 4% |
| CCOC(=O)C12COC(=O)C1N(C1CCCCC1)C(=O)C2=O | H37Rv |  | BACTEC |  |  | MIC bound | >12.5 µg/mL |
| Cn1c(NNc2nc(Nc3ccc(F)c(Cl)c3)nc(Nc3ccc(F)c(Cl)c3)n2)nc(-c2ccccc2)c(C#N)c1=O | H37Rv |  |  |  |  | EC50 | <12.5 µg/mL |
| CSc1ccc(C2C(C(=O)Nc3ccccc3Cl)=C(C)NC(C)=C2C(=O)Nc2ccccc2Cl)cc1 | H37Rv |  |  | 2.5 µg/mL |  | inhibition | 78% |
| COC(=O)[C@H]1[C@H](O)[C@@H](C)[C@@H](O)[C@](C)(O)/C=C(\C)C2=C3C(=C(C)C(=O)c4c(O)c(c(C)c(OC(C)=O)c43)NC(=O)/C(C)=C/C=C\[C@@H](C)C(O)[C@@H](C)[C@H]1O)OCO2 | H37Rv |  | BACTEC | 12.5 µg/mL |  | inhibition | 79% |
| Cn1c(NNc2nc(Nc3ccc(Cl)cc3Cl)nc(Nc3ccc(Cl)cc3Cl)n2)nc(-c2ccc(Cl)cc2)c(C#N)c1=O | H37Rv |  |  | 12.5 µg/mL |  | inhibition | 0% |
| Nc1nc(-n2cc(C(=O)O)c(=O)c3cc(F)c(N4CC(O)C4)c(Cl)c32)c(F)cc1F | 23 strains (rifampicin-resistant) |  |  |  |  | MIC90 | 6.25 µg/mL |
| Cc1occc1C(=S)Nc1ccc(Cl)c(/C=N/OC2CCCC2)c1 | H37Rv |  | BACTEC |  |  | MIC bound | ≤12.5 µg/mL |
| COc1cccc(/C=C/C(=O)c2c(O)c3cc(C)c(C)cc3oc2=O)c1O | INHR-MTB | Isoniazid-resistant | agar |  |  | MIC90 | >6.25 µg/mL |
| O=C(CCSCCC(=O)N/N=C(\CO)C(O)C(O)C(O)CO)N/N=C(\CO)C(O)C(O)C(O)CO | H37Rv |  | BACTEC |  |  | MIC bound | >12.5 µg/mL |
| Cn1c(NNc2nc(Nc3ccc(Cl)cc3)nc(Nc3ccc(Cl)cc3)n2)nc(-c2ccc(Cl)cc2)c(C#N)c1=O | H37Rv |  |  |  |  | EC50 | <12.5 µg/mL |
| O=C(/C=C/c1ccccn1)c1c(O)c2ccccc2oc1=O | INHR-MTB | Isoniazid-resistant | agar |  |  | MIC90 | >6.25 µg/mL |
| Cc1ccc(Nc2nc(NNc3nc(-c4ccccc4)c(C#N)c(=O)n3C)nc(Nc3ccc(C)cc3C)n2)c(C)c1 | H37Rv |  |  |  | VERO | EC50 | <12.5 µg/mL |
| Nc1ccc(-c2nnc(SCc3ccc(Cl)cc3Cl)n2C2CCCCC2)cc1 | H37Rv |  |  | 6.25 µg/mL |  | inhibition | 50–59% |
| O=C(NCc1ccc(N2CCN(Cc3ccccc3)CC2)nc1)c1ccc([N+](=O)[O-])o1 | UT15 |  |  |  |  | MIC | 0.012 µg/mL |
| COc1cccc(C2CC(c3c(O)c4cc(C)c(C)cc4oc3=O)=NN2)c1O | H37Rv |  | agar |  |  | MIC90 | >6.25 µg/mL |
| Cc1ccc2c(c1)[n+]([O-])c(N)c(C#N)[n+]2[O-] | H37Rv |  | resazurin | 6.25 µg/mL |  | inhibition | 59% |
| COC1=C[C@@H](C)[C@@H]2C[C@H]3OC(=O)C[C@]4(O)[C@@]3(C)[C@H]([C@H](O)[C@@H](OC)[C@@]4(C)O)[C@@]2(C)C1=O | H37Rv |  |  |  |  | EC50 | >12.5 µg/mL |
| COc1ccc(-c2cs/c(=N\NC(=O)COc3cnccn3)n2-c2ccc(Cl)cc2[N+](=O)[O-])cc1 | H37Rv |  |  |  |  | MIC | 2.7 µg/mL |
| Cn1c(NNc2nc(NCc3ccccc3)nc(NCc3ccccc3)n2)nc(-c2ccccc2)c(C#N)c1=O | H37Rv |  |  |  |  | EC50 | <12.5 µg/mL |
| O=C1C(Cl)=C(N=Nc2c(Cl)c(O)c3ccccc3c2O)C(=O)c2ccccc21 | H37Rv |  | BACTEC |  |  | MIC | 3.13 µg/mL |
| Cc1ccc2[nH]c(=S)[nH]c2c1 | MY 332/88 |  |  |  |  | MIC | 500 µM |
| COc1cccc(C2CC(c3c(O)c4cc(C)c(C)cc4oc3=O)=NN2c2ccccc2)c1O | H37Rv |  | agar |  |  | MIC90 | >6.25 µg/mL |
| Cc1cc(C)nc(NS(=O)(=O)c2ccc(N=NC3=C(O)C(c4ccccc4)N(c4ccccc4)C3=O)cc2)n1 | H37Rv |  | BACTEC | 12.5 µg/mL |  | inhibition | 7% |
| O=C(CSc1nnc(-c2ccccn2)s1)N/N=c1/scc(-c2ccccc2Br)n1-c1ccccc1 | H37Rv |  |  |  |  | MIC | 80 µg/mL |

Percent inhibition refers to the dose given; in toxicity tests it is the harm to the cells. ECn: concentration that inhibits the pathogen or its effect by n%. Two numbers with a dash give a range or band. A number after MIC or MFC names an inhibition level or a share of isolates. Blank or dashed fields: not listed here. MIC bound: limit read from a one-dose screen.